Laboratory results published in PubChem BioAssay AID504329 (Southern Research Specialized Biocontainment Screening …, 2011).
Some of the results follow. Entries with a potency or affinity are not part of this list. Some salts and complexes are drawn in separate pieces, as the source files them; their charges need not balance. Activity calls are given as the source filed them. Cut-off read from the data, not from the text of the source: inconclusive = inhibition above about 27% without an active follow-up result; inactive = below that.

Experiment: H1N1 influenza NS1A inhibitors, functional cell based assay (AID 504329)
Details: percent inhibition, at 12.5 µM, stronger effect = higher value

SMILES	inhibition
COc1ccc(OP(C)(=O)Nc2ccccn2)cc1 (stereo not given)	inactive: -0.34%
CN(C)CCOC(=O)C(O)(c1ccccc1)C1CCCC1 (stereo not given)	inactive: -18.3%
COc1ccccc1OP(C)(=O)Nc1ccc(Br)cc1 (stereo not given)	inactive: 2.53%
COc1ccccc1OP(C)(=O)Nc1ccc(C)cc1C (stereo not given)	inactive: -1.52%
CP(=O)(Nc1ccccn1)Oc1ccccc1 (stereo not given)	inactive: 9.14%
CCc1ccc(OP(C)(=O)O)cc1	inactive: 2.77%
Cc1c(NP(C)(=O)Oc2ccc(C(C)C)cc2)c(=O)n(-c2ccccc2)n1C (stereo not given)	inactive: 2.16%
O=[N+]([O-])c1cc([N+](=O)[O-])c(Nc2ccccn2)c([N+](=O)[O-])c1	inactive: 3.23%
COc1ccccc1OP(C)(=O)Nc1ccc(C)c(C)c1 (stereo not given)	inactive: -2.72%
COc1ccc(OP(C)(=O)Nc2ccccc2Br)cc1 (stereo not given)	inactive: -6.76%
Cc1cc(C)cc(OP(C)(=O)Nc2cccc(C(F)(F)F)c2)c1 (stereo not given)	inactive: 1.79%
O=C1C(O)=C([N+](=O)[O-])C(=O)C(O)=C1[N+](=O)[O-]	inactive: -25.1%
CP(=O)(Nc1ccc(Cl)cc1Cl)Oc1ccccc1 (stereo not given)	inactive: -4.4%
CCCCCCCCCCCCCCCC1C[N+](C)(C)CCOP(C)(=O)O1 (stereo not given)	inactive: 2.53%
CP(=O)(OCCOc1ccccc1)OCCOc1ccccc1	inactive: 2.73%
CCOC(=O)c1ccc(NP(C)(=O)Oc2ccc(Cl)cc2)cc1 (stereo not given)	inactive: -4.4%
CP(=O)(OC12CC3CC(CC(C3)C1)C2)OC12CC3CC(CC(C3)C1)C2	inactive: 0.94%
O=C(OCCCN1CCCC1)C(O)(c1ccccc1)C1CCCCC1 (stereo not given)	inactive: 0.27%
COc1ccccc1OP(C)(=O)Nc1c(C)n(C)n(-c2ccccc2)c1=O (stereo not given)	inactive: -0.55%
CCc1ccc(OP(C)(=O)Nc2cccnc2)cc1 (stereo not given)	inactive: 3.56%
CP(=O)(Oc1ccccc1)N1CCOC1=O (stereo not given)	inactive: 0.35%
COc1ccc(OP(C)(=O)Nc2ccc(Br)cc2)cc1 (stereo not given)	inactive: 0.57%
CCN(CC)CC(O)COC(=O)C(O)(c1ccccc1)C1CCCCC1 (stereo not given)	inactive: 6.08%

SMILES	inhibition
CN(C)C(=O)c1c([N+](=O)[O-])cc([N+](=O)[O-])cc1[N+](=O)[O-]	inactive: -4.87%
COc1ccccc1OP(C)(=O)Nc1ccccc1Br (stereo not given)	inactive: -2.35%
CC(C)(C)c1ccc(OP(C)(=O)O)cc1	inactive: 0.47%
CP(=O)(Nc1ccc(Cl)cc1)Oc1ccc(F)cc1 (stereo not given)	inactive: -0.21%
CCOP(C)(=S)SCC(=O)NC(C)(CC)C(=O)O (stereo not given)	inactive: 4.43%
CP(=O)(Nc1ccc(SC(F)(F)F)cc1)Oc1ccc(F)cc1 (stereo not given)	inactive: -3.01%
Cc1ccccc1NP(C)(=O)Nc1ccccc1C	inactive: -3%
CP(=O)(Nc1ccc2c(c1)OCCO2)Oc1ccccc1 (stereo not given)	inactive: -13.2%
CN(C)CCOC(=O)C(O)(c1ccccc1)C1CCCCC1 (stereo not given)	inactive: 8.01%
COc1ccc(NP(C)(=O)Oc2ccccc2OC)cc1 (stereo not given)	inactive: -1.82%
COc1ccc(OP(C)(=O)Nc2cccc(Br)c2)cc1 (stereo not given)	inactive: -0.53%
Cc1c(C(c2ccc3c(c2)OCO3)c2c(C)n(C)n(-c3ccccc3)c2=O)c(=O)n(-c2ccccc2)n1C.O=[N+]([O-])c1cc([N+](=O)[O-])c(O)c([N+](=O)[O-])c1	inactive: 18.8%
O=[N+]([O-])c1ccc(OP2(=O)COCCO2)cc1 (stereo not given)	inactive: -6.47%
O=[N+]([O-])c1cc([N+](=O)[O-])c(NCC2CCS(=O)(=O)C2)c([N+](=O)[O-])c1 (stereo not given)	inactive: 2.36%
Cc1cc(-c2cccc3ccccc23)c(C)cn1.O=[N+]([O-])c1cc([N+](=O)[O-])c(O)c([N+](=O)[O-])c1	inactive: 12%
CCOC(=O)c1ccc(NP(C)(=O)Oc2ccc(F)cc2)cc1 (stereo not given)	inactive: -6.28%
COc1ccc(OP(C)(=O)Nc2ccc(SC(F)(F)F)cc2)cc1 (stereo not given)	inactive: -6.8%
CP(=O)(Nc1ccccc1)Oc1ccc(F)cc1 (stereo not given)	inactive: -1.5%
O=[N+]([O-])c1cc([N+](=O)[O-])c(OC2CCCCC2O)c([N+](=O)[O-])c1 (stereo not given)	inactive: -1.8%
CCCCCOc1ccc(NP(C)(=O)Oc2ccc(Cl)cc2Cl)cc1 (stereo not given)	inactive: -15.4%
Cc1c([N+](=O)[O-])cc([N+](=O)[O-])c(Br)c1[N+](=O)[O-]	inactive: 5.81%
CCN(CC)CCCOC(=O)C(O)(c1ccccc1)C1CCCCC1 (stereo not given)	inactive: 7.18%
CP(=O)(Nc1ccccc1F)Oc1ccccc1 (stereo not given)	inactive: -2.34%

SMILES	inhibition
CC(C)c1ccc(OP(C)(=O)Nc2ccc(SC(F)(F)F)cc2)cc1 (stereo not given)	inactive: -8.48%
COc1ccc2c(c1O)-c1c(O)c(OC)cc3c1[C@H](C2)[N+](C)(C)CC3.O=[N+]([O-])c1cc([N+](=O)[O-])c([O-])c([N+](=O)[O-])c1[O-]	inactive: 0.28%
O=C(OC1CN2CCC1CC2)c1ccc([N+](=O)[O-])cc1 (stereo not given)	inactive: 14.5%
O=C(OCCN1CCN(CCOCc2ccccc2)CC1)C(O)(c1ccccc1)c1ccccc1	inactive: 22.9%
CCOC(=O)c1ccc(NP(C)(=O)Oc2cc(C)cc(C)c2)cc1 (stereo not given)	inactive: 0.86%
Cc1cc(C)cc(OP(C)(=O)Nc2ccc(C)cc2C)c1 (stereo not given)	inactive: -3.93%
COc1ccccc1OP(C)(=O)Nc1cccc(Br)c1 (stereo not given)	inactive: -13%
Cc1ccc(C)c(NP(C)(=O)Oc2ccccc2)c1 (stereo not given)	inactive: 4.55%
Cc1cc(C)cc(OP(C)(=O)Nc2ccccn2)c1 (stereo not given)	inactive: -3.4%
CP(=O)(Nc1cccc(Br)c1)Oc1ccccc1 (stereo not given)	inactive: -1.85%
O=C(O)c1cccc(Nc2c([N+](=O)[O-])cc([N+](=O)[O-])cc2[N+](=O)[O-])c1	inactive: 6.29%
CC1=NCCc2c1[nH]c1ccccc21.O=[N+]([O-])c1cc([N+](=O)[O-])c(O)c([N+](=O)[O-])c1	inactive: 8.47%
CCOC(=O)C(CC)C1=NC(C)(C)Cc2ccccc21.O=[N+]([O-])c1cc([N+](=O)[O-])c(O)c([N+](=O)[O-])c1 (stereo not given)	inactive: -12.2%
CC1=C2N=C(C=C3N=C(C(C)=C4[N-][C@@](C)([C@@H]5N=C1[C@](C)(CCC(=O)NC[C@@H](C)OP(=O)([O-])O[C@H]1[C@@H](O)[C@@H](n6cnc7cc(C)c(C)cc76)O[C@@H]1CO)[C@H]5CC(N)=O)[C@@](C)(CC(N)=O)[C@@H]4CCC(N)=O)[C@@](C)(CC(N)=O)[C@@H]3CCC(N)=O)C(C)(C)[C@@H]2CCC(N)=O.[C-]#N.[Co+3]	inactive: 6.38%
O=[N+]([O-])c1cc([N+](=O)[O-])c(Nc2nnnn2CCO)c([N+](=O)[O-])c1	inactive: -12.3%
CCCOc1ccc(NP(C)(=O)Oc2ccc(Cl)cc2)cc1 (stereo not given)	inactive: 1.23%
CP(=O)(Nc1ccc(SC(F)(F)F)cc1)Oc1ccccc1 (stereo not given)	inactive: -5.12%
CN1CCCCC1COC(=O)C1(O)c2ccccc2CCc2ccccc21 (stereo not given)	inactive: -13.3%
COc1ccccc1OP(C)(=O)Nc1c(C)cccc1C (stereo not given)	inactive: 6.53%
O=[N+]([O-])c1cc([N+](=O)[O-])c(-n2nnc3ccccc32)c([N+](=O)[O-])c1	inactive: -4.77%
Cc1nc2ccc3ccccc3c2s1.O=[N+]([O-])c1cc([N+](=O)[O-])c(O)c([N+](=O)[O-])c1	inactive: -4.56%
O=[N+]([O-])c1cc([N+](=O)[O-])c(-c2cnn(-c3ccccc3)c2)c([N+](=O)[O-])c1	inactive: -5.77%
Cc1cc(C)cc(OP(C)(=O)Nc2ccc(SC(F)(F)F)cc2)c1 (stereo not given)	inactive: 18%

SMILES	inhibition
CP(=O)(NC(=O)Nc1ccccc1)Oc1ccccc1 (stereo not given)	inactive: 4.8%
CCc1ccc(OP(C)(=O)N2CCN(c3ccc([N+](=O)[O-])cc3)CC2)cc1 (stereo not given)	inactive: 0.75%
CP(=O)(Oc1ccccc1)OC(c1ccccc1)C(F)(F)F (stereo not given)	inactive: -7.78%
Cc1cccc(C)c1OP(C)(=O)Nc1ccc(SC(F)(F)F)cc1 (stereo not given)	inactive: -1.31%
CP(=O)(Nc1ccccn1)Oc1ccc(Cl)cc1 (stereo not given)	inactive: -5.73%
CCOC(=O)c1ccc(NP(C)(=O)Oc2ccc(OC)cc2)cc1 (stereo not given)	inactive: -7.67%
CCOP(C)(=S)SCC(=O)NC(C)C(=O)O (stereo not given)	inactive: -2.16%
CP(=O)(Nc1ccccc1Br)Oc1ccccc1 (stereo not given)	inactive: -7.46%
COc1ccccc1OP(C)(=O)Nc1ccccc1 (stereo not given)	inactive: -0.43%
CP(=S)(Nn1cnnc1)Oc1ccccc1 (stereo not given)	inactive: -11.5%
O=[N+]([O-])c1ccc2c(c1)C=Nc1ccccc1O2	inactive: 7.38%
Cc1cccc(C)c1OP(C)(N)=O (stereo not given)	inactive: 1.89%
CC(C)(C)c1ccc(OP(C)(=O)Nc2ccc(SC(F)(F)F)cc2)cc1 (stereo not given)	inactive: 2.06%
O=[N+]([O-])c1cc([N+](=O)[O-])c(Nc2cccnc2)c([N+](=O)[O-])c1	inactive: 9.67%
Cc1cc(C)cc(OP(C)(N)=O)c1 (stereo not given)	inactive: 10.9%
COc1ccc(OP(C)(=O)Nc2cccc(F)c2)cc1 (stereo not given)	inactive: -0.57%
COc1ccccc1OP(C)(=O)Nc1cc(Cl)ccc1C (stereo not given)	inactive: -2.7%
Cc1ccc(NP(C)(=O)Oc2ccccc2)c(C)c1 (stereo not given)	inactive: -4.44%
COc1ccccc1OP(C)(=O)Nc1ccc(C)cc1 (stereo not given)	inactive: 7.91%
CCOC(=O)c1ccc(NP(C)(=O)Oc2ccccc2)cc1 (stereo not given)	inactive: 3.87%
CCN(CC)CCCOC(=O)C(O)(c1ccccc1)c1ccccc1	inactive: 0.123%
